Test results published in PMC6117287, “A fundamental catalytic difference between zinc and manganese dependent enzymes revealed in a bacterial isatin hydrolase” (Scientific Reports, 2018).

System: O=C1Nc2ccccc2C1=O
Test: purified protein
Settings: Mn2+ dependent enzyme; one-site Michaelis-Menten fit

RsIHA (Ralstonia pseudosolanacearum GMI1000)
Km: 10 µM
